Anti-infective test results gathered from many reports (values: NIAID ChemDB through PubChem).

Common to all: enzyme or target tests; organism: HIV-1; protein: Reverse transcriptase; read-out: IC50

a–b is a range or a potency band.

compound	strain	mutations	method	result
Cc1c(Cl)ccc2cc(/C=C/c3csc(Cl)c3)c(Cl)nc12	-	-	RT activity	0.13 µg/mL
CNc1ccccc1C(=O)NCCC[Si](C)(C)O[Si](C)(C)CCCNC(=O)c1ccccc1NC	-	-	-	>2000 µM
CCOc1ccccc1CCNC(=S)Nc1nccs1	-	-	nucleotide incorporation	>10 µg/mL
Cc1c(S(=O)(=O)c2ccc(C(C)(C)C)cc2)[nH]c2ccccc12	-	WT	RT activity	89 µM
COc1ccc2c(N/N=C/c3cccc([N+](=O)[O-])c3)cc(C)nc2c1	-	-	nucleotide incorporation	0.45 µM
CCCCCCCCCCCCCc1cccc(O)c1	-	-	RT activity / nucleotide incorporation	>100 µM
CCN1c2ncc(CCOc3ccc(C(=O)NN)cc3C)cc2C(=O)N(C)c2cccnc21	IIIB	RT-K103N Y181C	nucleotide incorporation / radiometric	<0.05 µM
CC(C)=CCOc1cc(NC(=S)c2ccoc2C)ccc1Cl	-	RT-K103N	-	22.3 µM
CC(=O)O[C@H]1C[C@](C)(O)/C=C/C[C@@H](C)/C=C/[C@@]2(C)CC[C@@H](C(C)(C)OC(C)=O)[C@H]12	-	-	nucleotide incorporation / radiometric	>40 µM
Cc1cc(-c2ccc[n+]([O-])c2)ccc1OCCc1cnc2c(c1)C(=O)N(C)c1cccnc1N2C1CC1	IIIB	-	nucleotide incorporation / radiometric	<0.05 µM
N#Cc1csc(NC(=O)NCCc2ccccc2)n1	-	-	nucleotide incorporation	<0.1 µg/mL
Oc1ccccc1C=NCCN=Cc1ccccc1O	-	-	ELISA	>6 µM
Cc1cccc2sc(NC(=O)NCCc3ccccc3)nc12	-	-	nucleotide incorporation	>10 µg/mL
Nc1nc(Nc2ccc(Cl)c(Cl)c2)nn1S(=O)(=O)c1ccc2ccccc2c1	A17	Y181C/K103N	luciferase / RT activity	>1000 µM
Oc1cc(O)c2c(c1)O[C@@]1(c3ccc(O)c(O)c3)Oc3cc(O)c4c(c3[C@@H]2[C@H]1O)O[C@H](c1ccc(O)c(O)c1)[C@H](O)[C@H]4c1c(O)cc(O)c2c1O[C@H](c1ccc(O)c(O)c1)[C@H](O)C2	-	-	nucleotide incorporation	>20 µg/mL
Cc1cc(N/N=C/c2occc2CO)nc2ccccc12	-	-	nucleotide incorporation	1.06 µM
C[C@H](Cc1cnc2c(N)ncnn12)OCP(=O)(O)OP(=O)(O)OP(=O)(O)O	-	-	nucleotide incorporation / radiometric	<0.05 µM
Nc1nc(Nc2ccc(Cl)cc2)nn1S(=O)(=O)c1ccc2ccccc2c1	A17	Y181C/K103N	luciferase / RT activity	>1000 µM
CCOc1ccc2c(N/N=C/c3ccc(N(C)C)cc3)cc(C)nc2c1	-	-	nucleotide incorporation	0.82 µM
Cc1cn([C@H]2C[C@H](F)[C@@H](COP(=O)(O)OP(=O)(O)OP(=O)(O)O)O2)c(=O)[nH]c1=O	-	-	-	0.33 µM
Nc1ncnn2c(COCCP(=O)(O)OP(=O)(O)OP(=O)(O)O)ccc12	-	-	nucleotide incorporation / radiometric	≥0.25 µM
Cc1cc(C)cc(S(=O)(=O)n2cc(-c3cccc([N+](=O)[O-])c3)c3ccccc32)c1	-	K103N	RT activity	44 µM
Cc1cc(C)cc(S(=O)(=O)c2c(C(=O)NC(C)C(N)=O)[nH]c3ccc(Cl)cc23)c1	-	K103N	RT activity	0.477 µM
O=c1c(O[C@@H]2O[C@H](CO)[C@@H](O)[C@H](O)[C@H]2O)c(-c2ccc(O)c(O)c2)oc2cc(O)cc(O)c12	-	-	-	>1000 µM
C[Si](C)(CCCSc1ncccn1)O[Si](C)(C)CCCSc1ncccn1	-	-	-	>2000 µM
COc1cc(OC)c(OC)cc1/C=N/Nc1cc(C)nc2c(OC)cccc12	-	-	nucleotide incorporation	0.04 µM
O=C(O[C@@H]1Cc2c(O)cc(O)cc2O[C@@H]1c1ccc(O)c(O)c1)c1cc(O)c(O)c(O)c1	-	-	nucleotide incorporation	>20 µg/mL
CCN1c2nc(C(F)(F)F)ccc2NC(=O)c2cc(CCOc3cc[n+]([O-])c4ccccc34)cnc21	IIIB	-	nucleotide incorporation / radiometric	0.035 µM
CCOCn1c2c(c(=O)[nH]c1=O)CCCCC2c1ccccc1	-	-	ELISA	101 µM
C[Si](C)(CCCn1cnc2c(N)ncnc21)O[Si](C)(C)CCCn1cnc2c(N)ncnc21	-	-	-	>2000 µM
COc1ccc(/C=N/Nc2cc(C)nc3c(OC)cccc23)cc1	-	-	nucleotide incorporation	1.11 µM
COc1ccc(C(=O)/C=C/c2cc3ccc(Cl)c(C)c3nc2Cl)cc1	-	-	RT activity	0.25 µg/mL
CC(=O)C(C)Oc1ccc(O)c2c1C(=O)c1ccccc1C2=O	-	-	-	>100 µM
Cc1cc(/C=C/c2cc3ccc(Cl)c(C)c3nc2Cl)c(C)s1	-	-	RT activity	0.25 µg/mL
CNc1ccc(-c2nc(=O)n(CC(=O)N3CCCC3)c3c2oc2ncc(-c4cnn(C)c4)cc23)cn1	-	-	PicoGreen / fluorescence	0.07 µM
Cc1nc(NC(=O)NCCc2ccccc2)sc1C	-	-	nucleotide incorporation	>10 µg/mL
NCC1OC(n2cnc3c(N)ncnc32)C(OP(=O)(O)OCC2OC(n3cnc4c(N)ncnc43)C(OP(=O)(O)OCCOCn3cnc4c(N)ncnc43)C2O)C1O	IIIB	-	RT activity	<100 µM
COc1c(C(=O)C2=CN3OC(C)=NC3N=C2)c(O)c(OC)c2occc12	-	-	scintillation proximity / radiometric	0.0003 µM
Nc1ncnc2c(C[C@@H](CF)OCP(=O)(O)OP(=O)(O)OP(=O)(O)O)cnn12	-	-	nucleotide incorporation / radiometric	<0.05 µM
C[Si](O)(CCCn1cnc2c(N)ncnc21)c1ccccc1	-	-	-	2000 µM
COc1c(C(=O)c2cnc3cc(=O)[nH]c(=O)n3c2)c(O)c(OC)c2occc12	-	-	scintillation proximity / radiometric	40.31 µM
O=c1[nH]c(=O)n(Cc2ccccc2)c2c1CCCCC2c1ccccc1	-	-	ELISA	101 µM
Cc1[nH]c2ccccc2c1S(=O)(=O)c1ccccc1	-	WT	RT activity	88 µM
C#CCOc1ccc(OC(C)=O)c2c1C(=O)c1ccccc1C2=O	-	-	-	84 µM
CCCCCCCCCCCCCCCc1cccc(O)c1C(=O)O	-	-	RT activity / RNase H	170.3 µM
O=P(O)(O)OP(=O)(O)OP(=O)(O)OC[C@H]1O[C@@H](n2ccc3c(Cl)ncnc32)C[C@@H]1F	-	-	RT activity	304 µM
CCN1c2ncc(CCOc3ccc(-c4ccc(N)nc4C)cc3C)cc2C(=O)N(C)c2cccnc21	IIIB	RT-K103N Y181C	nucleotide incorporation / radiometric	<0.05 µM
O=c1[nH]c(=O)n([C@H]2CC[C@@H](COP(=O)(O)OP(=O)(O)OP(=O)(O)O)O2)cc1/C=C/c1ccccc1	-	-	nucleotide incorporation / radiometric	0.8 µM
CC(Cc1ccc2c(=O)[nH]cnn12)OCP(=O)(O)OP(=O)(O)OP(=O)(O)O	-	-	nucleotide incorporation / radiometric	≥0.25 µM
Cc1[nH]c2ccccc2c1S(=O)(=O)c1ccc(Cl)cc1	-	WT	RT activity	50 µM
CC(C)=CCOc1cc(NC(=S)c2ccsc2C)ccc1Cl	-	RT-E138K	-	0.2 µM
CC(C)=CCC/C(C)=C/CC/C(C)=C/CC/C(C)=C/CC/C(C)=C/CC/C(C)=C/Cc1cc(O)ccc1O	-	-	nucleotide incorporation	6.7 µM
Nc1ncnc2c(CC3(OCP(=O)(O)OP(=O)(O)OP(=O)(O)O)CC3)cnn12	-	-	nucleotide incorporation / radiometric	0.05–0.25 µM
Oc1cc(O)c2c(c1)O[C@H](c1ccc(O)c(O)c1)[C@H](O)[C@H]2c1c(O)cc(O)c2c1O[C@H](c1ccc(O)c(O)c1)[C@H](O)[C@H]2c1c(O)cc(O)c2c1O[C@H](c1ccc(O)c(O)c1)[C@H](O)C2	-	-	nucleotide incorporation	>20 µg/mL
Cc1c(Cl)ccc2cc(/C=C/C(=O)c3ccccc3Br)c(Cl)nc12	-	-	RT activity	0.3 µg/mL
CC(C)(C)c1ccc(S(=O)(=O)c2c[nH]c3ccccc23)cc1	-	WT	RT activity	52 µM
COc1ccc2c(N/N=C/c3ccc(O)cc3)ccnc2c1	-	-	nucleotide incorporation	0.09 µM
Cc1cn([C@H]2CC[C@@H](COP(=O)(O)OP(=O)(O)OP(=O)(O)O)O2)c(=O)[nH]c1=O	-	-	nucleotide incorporation / radiometric	0.4 µM
Nc1ncnc2c(C[C@H](OCP(=O)(O)OP(=O)(O)OP(=O)(O)O)C(F)F)cnn12	-	-	nucleotide incorporation / radiometric	≥0.25 µM
CCN1c2ncccc2NC(=O)c2cc(CCOc3ccc(-c4cc(OC)c(O)c(C(=O)O)c4)cc3C)cnc21	IIIB	RT-K103N Y181C	nucleotide incorporation / radiometric	<0.05 µM
C[n+]1ccc(-c2c3nc(c(-c4cc[n+](C)cc4)c4ccc([nH]4)c(-c4cc[n+](C)cc4)c4nc(c(-c5cc[n+](C)cc5)c5ccc2[nH]5)C=C4)C=C3)cc1	-	-	ELISA	>6 µM
CCCCCCCCCCCCCCCC(=O)NCC1CC(OP(=O)(O)OCC2OC(n3cnc4c(N)ncnc43)C(OP(=O)(O)OCC3OC(n4cnc5c(N)ncnc54)C(O)C3O)C2O)C(n2cnc3c(N)ncnc32)O1	IIIB	-	RT activity	<100 µM
CC(=O)Oc1ccc(OC(C)C(C)=O)c2c1C(=O)c1ccccc1C2=O	-	-	-	>100 µM
C[C@H](Cc1nnc2c(N)ncnn12)OCP(=O)(O)OP(=O)(O)OP(=O)(O)O	-	-	nucleotide incorporation / radiometric	≥0.25 µM
CCCCCC/C=C/CCCCCCCCCc1cccc(O)c1C(=O)O	-	-	RT activity / nucleotide incorporation	>100 µM
Nc1nc(=O)n([C@@H]2C=C[C@H](COP(=O)(O)OP(=O)(O)OP(=O)(O)O)O2)cc1F	-	-	-	0.2 µM

For reference, 4 entries again:

compound	strain	mutations	method	result
Cc1c(S(=O)(=O)c2ccc(C(C)(C)C)cc2)[nH]c2ccccc12	-	WT	RT activity	89 µM
C[Si](C)(CCCSc1ncccn1)O[Si](C)(C)CCCSc1ncccn1	-	-	-	>2000 µM
CCCCCCCCCCCCCCCc1cccc(O)c1C(=O)O	-	-	RT activity / RNase H	170.3 µM
COc1ccc(C(=O)/C=C/c2cc3ccc(Cl)c(C)c3nc2Cl)cc1	-	-	RT activity	0.25 µg/mL

Neighbouring rows are from separate reports. Blank or dashed fields: not listed here. ICn is the concentration giving n% inhibition.